Measured values from several laboratories, pooled; numbers as filed in NIAID ChemDB.

All rows: tests in culture; species: HIV-1; method: syncytia; measure: EC50

Conditions beyond the fields shown may differ between rows.

compound | strain or isolate | mutations | cells | result
COc1ccc(C)cc1CS(=O)(=O)c1cccc[n+]1[O-] | IIIB | RT-K103N | CEM | 44 µg/mL
CCOCn1c(Sc2ccccc2)c(CC)c(=O)[nH]c1=O | IIIB | RT-Y181C | CEM | 0.65 µM
CC(C)OC(=S)Nc1ccc(Cl)c(C(=O)OCC2CC2)c1 | - | RT-E138K | CEM | 1.83 µM
CCc1c(Sc2ccccc2)n(COCc2ccccc2)c(=O)[nH]c1=O | IIIB (TIBO 82150) (RT-L100I) | RT-L100I | CEM | 0.02 µM
Cc1occc1C(=S)Nc1ccc(Cl)c(OCC=C(Cl)Cl)c1 | Pyridone-resistant (RT Y181C) | RT-Y181C | CEM | 0.16 µg/mL
CC(C)OC(=O)c1cc(NC(=S)OC(C)(C)C)ccc1Cl | - | RT-L100I | CEM | ≥30.32 µM
C=C(Cl)COc1cc(NC(=S)c2ccoc2C)ccc1Cl | TIBO R82913-resistant (RT K103N) | RT-K103N | CEM | 0.65 µg/mL
CCc1c(Cc2cc(C)cc(C)c2)n(COCCO)c(=O)[nH]c1=O | IIIB | - | CEM | 0.028 µM
CCOC(=O)COc1cc(NC(=S)OC(C)C)ccc1Cl | - | RT-L100I | CEM | 15.06 µM
CC(C)c1c(Sc2ccccc2)n(COCc2ccccc2)c(=O)[nH]c1=O | IIIB (TIBO 82150) (RT-L100I) | RT-L100I | CEM | 0.01 µM
COc1ccc(NC(=O)C2=C(C)OCCS2)cc1OCC=C(Cl)Cl | TIBO R82913-resistant (RT K103N) | RT-K103N | CEM | 10 µg/mL
CCc1c(Sc2cc(C)cc(C)c2)n(COCCO)c(=O)[nH]c1=O | IIIB | RT-Y181C | CEM | 0.87 µM
C=CCOc1cc(NC(=S)OC(C)C)ccc1C#N | IIIB | - | CEM | 0.181 µM
COc1ccc(NC(=S)c2ccsc2C)cc1OCC=C(Cl)Cl | IIIB | - | CEM | 0.005 µg/mL
Cc1ccc(C)c(CS(=O)(=O)c2ccccn2)c1 | MN | - | CEM | 20 µg/mL
CC(C)OC(=O)Oc1cc(NC(=S)OC(C)C)ccc1Cl | IIIB | - | CEM | 1.205 µM
Cc1occc1C(=S)Nc1ccc(Cl)c(/C=N/OC(C)(C)C)c1 | IIIB | RT-K103N | CEM | 1.14 µM
C/C(Cl)=C/COc1cc(NC(=S)c2ccoc2C)ccc1Cl | TIBO R82150-resistant (RT L100I) | RT-L100I | CEM | 0.04 µg/mL
CC(C)OC(=O)c1cc(NC(=S)N(C)C(C)C)ccc1Cl | - | RT-Y181C | CEM | >30.32 µM
CC(C)=CCOc1cc(NC(=S)c2ccoc2C)ccc1Cl | IIIB | RT-V106A | CEM | 0.015 µM
CCOC(=O)c1cc(NC(=S)OC(C)C)ccc1SC | - | RT-E138K | CEM | 12.76 µM
Cc1ccc(C)c(C(C)S(=O)(=O)c2c(C)ccc[n+]2[O-])c1 | IIIB | - | CEM | 0.1 µg/mL
CC(C)OC(=S)Nc1ccc(Cl)c(C(=O)OCC[Si](C)(C)C)c1 | - | RT-E138K | CEM | 18.72 µM
CCOCn1c(Sc2cc(C)cc(C)c2)c(CC)c(=O)[nH]c1=O | IIIB | Nevirapine resistant (RT Y181C) | CEM | 0.09 µM
Cc1ccc(C(C)S(=O)(=O)c2c(C)ccc[n+]2[O-])c(C)c1 | HE | - | CEM | 17 µg/mL
CC(C)OC(=O)c1cc(NC(=S)OC(C)C)ccc1Cl | IIIB | RT-E138K | CEM | 1.24 µM
Cc1cc(C)c(CS(=O)c2cccc[n+]2[O-])c(C)c1 | IIIB | RT-Y181C | CEM | 10 µg/mL
Cc1sccc1C(=O)Nc1ccc(Cl)c(OCC=C(Cl)Cl)c1 | TIBO R82150-resistant (RT L100I) | RT-L100I | CEM | 0.53 µg/mL
Cc1cc(C)cc(Sc2c(C(C)C)c(=O)[nH]c(=S)n2COCCO)c1 | IIIB | RT-Y181C | CEM | 0.34 µM
Cc1ccc(C)c(C(C)S(=O)(=O)c2ccc(C)c[n+]2[O-])c1 | IIIB | - | MT-2 | 23 µg/mL
CC(C)OC(=O)c1cc(NC(=S)OC(C)C)ccc1Cl | - | RT-L100I | CEM | 2.06 µM
COc1ccc(NC(=S)c2ccoc2C)cc1OCC=C(Cl)Cl | HEPT-resistant (RT Y188H) | RT-Y188H | CEM | 10 µg/mL
C=CCOc1cc(NC(=S)OC(C)C)ccc1Cl | - | RT-E138K | CEM | 5.249 µM
O=[N+]([O-])c1ccc[n+]([O-])c1SCc1ccccc1 | IIIB | - | C8166 | 2.8 µg/mL
CC(C)c1c(Sc2ccccc2)n(COCCO)c(=O)[nH]c1=O | IIIB TIBO R82913-resistant (RT K103N) | RT-K103N | CEM | ≥10 µM
CC(C)=CCOc1cc(NC(=S)c2ccoc2C)ccc1Cl | IIIB | RT-Y188H | CEM | 0.012 µg/mL
CC(C)(C)OC(=O)c1cc(NC(=S)OC(C)(C)C)ccc1Cl | - | RT-L100I | CEM | >29.08 µM
CC1=C(C(=O)Nc2ccc(Cl)c(OCC=C(Cl)Cl)c2)SCCO1 | TSAO-m3T-resistant (RT E138K) | RT-E138K | CEM | 2 µg/mL
CC(C)OC(=S)Nc1ccc(Cl)c(C(=O)OC2CC2)c1 | IIIB | - | CEM | 0.127 µM
COc1ccc(NC(=O)c2ccoc2C)cc1OCC=C(Cl)Cl | Nevirapine-resistant isolate (RT V106A) | RT-V106A | CEM | 2 µg/mL
C/C=C/COc1cc(NC(=S)OC(C)C)ccc1Cl | - | RT-Y181C | CEM | 1.834 µM
CCOCn1c(Sc2ccccc2)c(C(C)C)c(=O)[nH]c1=S | IIIB | RT-Y181I | CEM | >30 µM
CC(C)OC(=O)c1cc(NC(=O)OCC2CC2)ccc1Cl | IIIB | - | CEM | 1.443 µM
Cc1occc1C(=S)Nc1ccc(Cl)c(/C=N/OC(C)(C)C)c1 | IIIB | RT-K103N | CEM | 1.14 µM
CCC(C)OC(=O)c1cc(NC(=S)OC(C)C)ccc1Cl | IIIB | - | CEM | 0.061 µM
O=S(=O)(Cc1ccccc1I)c1cccc[n+]1[O-] | IIIB | RT-Y181C | CEM | 20 µg/mL

An empty or dashed field is not shown. ECn: concentration that inhibits the pathogen or its effect by n%.